Test results: patent US20090305399A1

What was measured:
[1] = biological target: T1, human Kv1.1 channel (human), Q09470; assay: cell-based or functional assay
T1 chain: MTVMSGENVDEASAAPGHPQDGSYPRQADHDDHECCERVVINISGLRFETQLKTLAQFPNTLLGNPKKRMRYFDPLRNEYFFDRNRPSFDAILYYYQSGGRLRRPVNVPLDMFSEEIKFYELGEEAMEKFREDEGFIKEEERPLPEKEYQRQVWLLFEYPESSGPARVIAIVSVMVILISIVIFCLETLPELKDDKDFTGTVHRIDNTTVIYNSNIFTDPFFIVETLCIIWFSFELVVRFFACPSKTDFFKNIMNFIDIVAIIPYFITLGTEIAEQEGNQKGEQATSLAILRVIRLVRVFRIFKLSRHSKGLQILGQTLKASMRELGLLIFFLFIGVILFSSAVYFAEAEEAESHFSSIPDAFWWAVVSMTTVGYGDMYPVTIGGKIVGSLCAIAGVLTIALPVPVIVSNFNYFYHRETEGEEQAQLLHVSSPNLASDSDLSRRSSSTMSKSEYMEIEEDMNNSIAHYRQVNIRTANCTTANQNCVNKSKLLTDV

[2] = biological target: human Kv1.3 channel (human), P22001; assay: cell-based or functional assay

GVIINVKCKISRQCLEPCKKAAMRFGKCMNGKCHCTPK (modifications not checked) [OSK1 Alanine Analog G22A]
IC50, Kv1.1 current block [1]: > 3 nM | IC50, Kv1.3 current block [2]: > 3 nM

GVIINVKCKISRQCLEPCKKAGMAFGKCMNGKCHCTPK (modifications not checked) [OSK1 Alanine Analog R24A]
IC50, Kv1.3 current block [2]: > 3 nM

GVIINVKCKISRQCLEPCKKAGMRFGACMNGKCHCTPK (modifications not checked) [OSK1 Alanine Analog K27A]
IC50, Kv1.1 current block [1]: > 3 nM

GVIINVKCKISRQCLEPCKKAGMRFGKCMAGKCHCTPK (modifications not checked) [OSK1 Alanine Analog N30A]
IC50, Kv1.1 current block [1]: > 3 nM

GVIINVKCKISRQCLEPCKKAGMRFGKCRNGKCHCTPK (modifications not checked) [OSK1 Arginine Analog M29R]
IC50, Kv1.3 current block [2]: 0.2 nM

GVIINVKCKIRRQCLEPCKKAGMRFGKCMNGKCHCTPK (modifications not checked) [OSK1 analogue S11R]
Kv1.3 IC50, whole cell patch clamp ePhys [2]: 0.04 nM
